Tested on: O=P(O)(O)OP(=O)(O)O
Experiment: purified protein
Conditions: pH 7.2, 37 °C, 100 mM NaCl, 1.4 nM enzyme, metal not stated for the table (3 mM Mg2+ for wild type)

Row | Substance | Km [µM] | kcat [s⁻¹] | kcat/Km [M⁻¹ s⁻¹]
1 | PfPPase (Plasmodium falciparum 3D7; D198N) | 42.6 ± 2.1 |  | 
2 | PfPPase (Plasmodium falciparum 3D7; D203N) | 53.8 ± 8.3 | 0.53 | 9850
3 | PfPPase (Plasmodium falciparum 3D7; D235N) | 45.7 ± 2.1 | 52.5 | 1.16e+06
4 | PfPPase (Plasmodium falciparum 3D7; K136R) | 402.8 ± 16.4 | 21.8 | 53000
5 | PfPPase (Plasmodium falciparum 3D7; R158K) | 64.2 ± 3.2 | 60.4 | 940000

Reference: publication PMC5507929, “Structural and Biochemical Characterization of Apicomplexan Inorganic Pyrophosphatases” (Scientific Reports, 2017)
